Measurements reported in BindingDB's records for 10.7270/Q2ZW1P2T.

Amino acid sequences for entries named in this document (tags omitted). Residues count along the entry.
UniProt P30897, 29-298 limits assumed: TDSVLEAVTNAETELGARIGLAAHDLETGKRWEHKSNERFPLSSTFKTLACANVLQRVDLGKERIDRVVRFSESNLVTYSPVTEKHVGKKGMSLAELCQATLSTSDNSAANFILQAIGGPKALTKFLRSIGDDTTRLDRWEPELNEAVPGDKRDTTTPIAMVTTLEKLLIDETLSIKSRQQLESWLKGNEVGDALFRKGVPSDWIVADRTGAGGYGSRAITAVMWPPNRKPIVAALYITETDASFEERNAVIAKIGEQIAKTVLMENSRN
UniProt P25910, 19-249 limits assumed: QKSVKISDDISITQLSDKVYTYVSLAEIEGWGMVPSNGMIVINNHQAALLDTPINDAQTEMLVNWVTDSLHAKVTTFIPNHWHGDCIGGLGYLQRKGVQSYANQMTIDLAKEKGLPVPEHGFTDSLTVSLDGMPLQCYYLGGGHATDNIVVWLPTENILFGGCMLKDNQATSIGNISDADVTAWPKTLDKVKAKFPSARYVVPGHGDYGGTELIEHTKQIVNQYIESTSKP

Columns and labels:
[1] = target: Beta-lactamase (Proteus mirabilis, UniProt P30897); experiment: Inhibitory activity against Proteus vulgaris HJ33C Class-I beta-lactamase enzyme
[2] = target: Metallo-beta-lactamase type 2 (Bacteroides fragilis, UniProt P25910); experiment: Inhibitory activity against Bacteroides fragilis 88854 Class-I beta-lactamase enzyme

Row | SMILES | IC50 [1] | IC50 [2]
1 | CC1(C)S[C@@H]2[C@H](Br)C(=O)N2[C@H]1C(=O)O | 3.57 nM | 46.4 nM
2 | C[C@@]1(CSc2nc[nH]n2)S[C@@H]2[C@H](Br)C(=O)N2[C@H]1C(=O)O | 7.91 nM | 65.9 nM
3 | C[C@@]1(CSC2=NCCS2)S[C@@H]2[C@H](Br)C(=O)N2[C@H]1C(=O)O | 7.55 nM | 32.7 nM
